PubChem BioAssay AID1259414 – Drosophila RNAi Screening Center | 2018
The screen tested about 24,000 reagents; shown is an unselected part of those with a known target gene and a result. Over the whole deposit, about 1,210 (5%) were called active. 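Inactive calls also include excluded dsRNAs with several or no targets, genes unexpressed in JW18, and well A1, regardless of score.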 A number with no mark means an inactive call.

Aim: 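Host factors increasing or decreasing Wolbachia levels in cultured fly cells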 (primary screen)
System: Drosophila JW18 cells infected with Wolbachia
Reagent: long dsRNA against Drosophila genes, 0.25 µg dsRNA per well of a 384-well plate
Duration: 5 days
Challenge: cells persistently infected with Wolbachia before knock-down; no added drug
Detection: 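Automated imaging of bacterial rRNA staining divided by host cell count, reported as plate-normalised robust z-score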
Reading the numbers: Wolbachia per cell robust z: higher = more Wolbachia per host cell than the plate typical
Rule for the call: 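Active if absolute robust z reaches 1.5 in two or more of three replicates, leaving out multi- or no-target dsRNAs, genes unexpressed in JW18 and A1 wells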

CG17744 [DRSC10286] showed Wolbachia per cell robust z, rep 1 = -0.137; Wolbachia per cell robust z, rep 2 = 0.991; Wolbachia per cell robust z, rep 3 = 0.577.
With knock-down of CG15343 [DRSC18028] the results were Wolbachia per cell robust z, rep 1 = -4.75 (active); Wolbachia per cell robust z, rep 2 = -3.92; Wolbachia per cell robust z, rep 3 = 0.192.
Knock-down of CG15368 [DRSC23291] gave: Wolbachia per cell robust z, rep 1 = -1.44; Wolbachia per cell robust z, rep 2 = -1.7; Wolbachia per cell robust z, rep 3 = -0.244.
CG15368 [DRSC25848] gave Wolbachia per cell robust z, rep 1 = 0.302; Wolbachia per cell robust z, rep 2 = -0.111; Wolbachia per cell robust z, rep 3 = -0.355.
CG14408 [DRSC23396] scored Wolbachia per cell robust z, rep 1 = 0.77; Wolbachia per cell robust z, rep 2 = 1.43; Wolbachia per cell robust z, rep 3 = -10.6.
Sfp93F (Seminal fluid protein 93F) [DRSC41465] showed Wolbachia per cell robust z, rep 1 = -0.489; Wolbachia per cell robust z, rep 2 = -0.511; Wolbachia per cell robust z, rep 3 = -0.742.
With knock-down of CG6878 [DRSC10737], the screen gave Wolbachia per cell robust z, rep 1 = -3.39 (active); Wolbachia per cell robust z, rep 2 = -0.345; Wolbachia per cell robust z, rep 3 = -2.84.
Against Cht8 (Chitinase 8) [DRSC04546] the deposit lists Wolbachia per cell robust z, rep 1 = 0.481; Wolbachia per cell robust z, rep 2 = 0.512; Wolbachia per cell robust z, rep 3 = -4.06.
CG34289 [DRSC38814] scored Wolbachia per cell robust z, rep 1 = -2.63; Wolbachia per cell robust z, rep 2 = -0.616; Wolbachia per cell robust z, rep 3 = -0.648.
With knock-down of CG12020 [DRSC08226], the record shows Wolbachia per cell robust z, rep 1 = 0.268; Wolbachia per cell robust z, rep 2 = -0.687; Wolbachia per cell robust z, rep 3 = -4.5.
Knock-down of CG12020 [DRSC28730] came out at: Wolbachia per cell robust z, rep 1 = 0.917; Wolbachia per cell robust z, rep 2 = 1.25; Wolbachia per cell robust z, rep 3 = -0.496.
robls54B (roadblock similar 54B) [DRSC38867] showed Wolbachia per cell robust z, rep 1 = -1.21; Wolbachia per cell robust z, rep 2 = -1.64; Wolbachia per cell robust z, rep 3 = 0.284.
For obst-J (obstructor-J) [DRSC10821], the values are Wolbachia per cell robust z, rep 1 = -1.55; Wolbachia per cell robust z, rep 2 = 0.111; Wolbachia per cell robust z, rep 3 = 0.117.
obst-J (obstructor-J) [DRSC28354] scored Wolbachia per cell robust z, rep 1 = 0.252; Wolbachia per cell robust z, rep 2 = -0.105; Wolbachia per cell robust z, rep 3 = 0.263.
Silencing of Rbsn-5 (Rabenosyn-5) [DRSC03094] resulted in: Wolbachia per cell robust z, rep 1 = -0.552; Wolbachia per cell robust z, rep 2 = -0.912; Wolbachia per cell robust z, rep 3 = -1.43.
Rbsn-5 (Rabenosyn-5) [DRSC27756] scored Wolbachia per cell robust z, rep 1 = -0.354; Wolbachia per cell robust z, rep 2 = -1.25; Wolbachia per cell robust z, rep 3 = -1.96.
jp (junctophilin) [DRSC02213] showed Wolbachia per cell robust z, rep 1 = 0.235; Wolbachia per cell robust z, rep 2 = 0.28; Wolbachia per cell robust z, rep 3 = 0.532.
Got2 (Glutamate oxaloacetate transaminase 2) [DRSC00643] scored Wolbachia per cell robust z, rep 1 = -0.673; Wolbachia per cell robust z, rep 2 = -8.69; Wolbachia per cell robust z, rep 3 = -1.23.
With knock-down of Or13a (Odorant receptor 13a) [DRSC20265] the results were Wolbachia per cell robust z, rep 1 = -4.26; Wolbachia per cell robust z, rep 2 = 0.524; Wolbachia per cell robust z, rep 3 = 0.0369.
After knock-down of CG18420 [DRSC01954] the results were Wolbachia per cell robust z, rep 1 = -1.02; Wolbachia per cell robust z, rep 2 = -1.95; Wolbachia per cell robust z, rep 3 = -0.797.
CG13810 [DRSC08344] scored Wolbachia per cell robust z, rep 1 = -0.396; Wolbachia per cell robust z, rep 2 = -2.84; Wolbachia per cell robust z, rep 3 = -0.863.
Knock-down of CG13810 [DRSC22838] came out at: Wolbachia per cell robust z, rep 1 = 0.299; Wolbachia per cell robust z, rep 2 = 0.689; Wolbachia per cell robust z, rep 3 = 0.204.
After knock-down of CG13810 [DRSC27859], the record shows Wolbachia per cell robust z, rep 1 = 0.599; Wolbachia per cell robust z, rep 2 = 0.938; Wolbachia per cell robust z, rep 3 = 0.451.
CG30357 [DRSC22472] scored Wolbachia per cell robust z, rep 1 = -2.83; Wolbachia per cell robust z, rep 2 = 0.0404; Wolbachia per cell robust z, rep 3 = 0.439.

3 of these entries, set out differently:
CG13810 [DRSC22838]
- Wolbachia per cell robust z, rep 1: 0.299
- Wolbachia per cell robust z, rep 2: 0.689
- Wolbachia per cell robust z, rep 3: 0.204

CG13810 [DRSC27859]
- Wolbachia per cell robust z, rep 1: 0.599
- Wolbachia per cell robust z, rep 2: 0.938
- Wolbachia per cell robust z, rep 3: 0.451

CG30357 [DRSC22472]
- Wolbachia per cell robust z, rep 1: -2.83
- Wolbachia per cell robust z, rep 2: 0.0404
- Wolbachia per cell robust z, rep 3: 0.439
